Compound potency records, mixed from different reports. Data source: NIAID ChemDB in PubChem.

All rows: growth or infection tests; organism: Mycobacterium tuberculosis

Neighbouring rows are from separate reports.

smiles	read-out	read by	strain	dose	changes	result
C[C@H]1COc2c(N3CCN(C)CC3)c(F)cc3c(=O)c(C(=O)O)cn1c23	MIC	-	CSU23	-	-	0.25 µg/mL
CC(=O)Nc1ccc(/C=N/N=C/c2ccc(NC(C)=O)cc2)cc1	MIC	-	-	-	-	>200 µg/mL
c1ccc(CSc2ncccn2)cc1	MIC	-	H37Ra	-	-	>12.8 µg/mL
CC1COc2c(N3CCN(C)CC3)c(F)cc3c(=O)c(C(=O)O)cn1c23	MIC50	-	ATCC 35822 (isoniazid-resistant)	-	-	1.6 µM
FC(F)(F)c1ccccc1NC(=S)SCc1ccco1	MIC bound	resazurin	H37Rv	-	-	>6.25 µg/mL
CCc1nc2ccc(C)cc2n1CCCNc1ccccc1	fold resistance	turbidity / fluorescence	H37Rv	-	QcrB M342T	41
NC1CCN(c2nc3c(cc2F)c(=O)c(C(=O)O)cn3-c2ccc(F)cc2F)C1	MIC50	-	Drug-resistant	-	-	>8 µg/mL
CCc1nc2ccc(C)cc2n1CCCCSc1ccc(OC)cc1	MIC90	turbidity / fluorescence	H37Rv	-	QcrB M342T	98 µM
C=Cc1c(C)c2cc3[nH]c(cc4nc(cc5nc(cc1[nH]2)C(C)=C5CCC(=O)OC)C(CCC(=O)OC)=C4C)c(C)c3C=C	inhibition	resazurin	H37Rv	6.25 µg/mL	-	12%
O=C(/C=C/c1cc2ccccc2[nH]1)c1ccncc1	MIC	-	H37Rv	-	-	>12.5 µg/mL
CCc1nc2ccccc2n1CCCCOc1ccc(Cl)cc1	MIC90	turbidity / fluorescence	H37Rv	-	WT	14 µM
CSCCC(NC(=O)C(CCSC)NS(=O)(=O)Cc1ccccc1)C(=O)NNc1ccccc1	inhibition	BACTEC	H37Rv	12.5 µg/mL	-	21%
NNC(=O)c1ccncc1	MIC	-	TRC-resistant	-	-	0.05 µg/mL
CCc1nc2ccccc2n1CCCNc1ccc(C)c(C)c1	MIC90	turbidity / fluorescence	H37Rv	-	WT	3.1 µM
NC(=O)NC(=O)COc1ccc(Cl)cc1Cl	MIC bound	BACTEC	H37Rv	-	-	>12.5 µg/mL
O=C1C[C@@H](c2ccc(O)cc2)Oc2c1c(O)cc(O[C@@H]1O[C@H](CO)[C@@H](O)[C@H](O)[C@H]1O)c2[C@H]1C(=O)c2c(O)cc(O)cc2O[C@@H]1c1ccc(O)cc1	inhibition	-	H37Rv	12.5 µg/mL	-	0%
CC[C@@H](CO)NCCN[C@@H](CC)CO	MIC	broth dilution / resazurin	MDR14	-	-	32 µg/mL
COc1c(N2CCNC(C)C2)c(F)cc2c(=O)c(C(=O)O)cn(C3CC3)c12	MIC	-	Strain 102	-	-	2 µg/mL
CO[C@H]1/C=C/O[C@@]2(C)Oc3c(C)c(O)c4c(O)c(c(/C=N/N5CCN(C/C=C/c6ccccc6)CC5)c(O)c4c3C2=O)NC(=O)/C(C)=C\C=C\[C@H](C)[C@H](O)[C@@H](C)[C@@H](O)[C@@H](C)[C@H](OC(C)=O)[C@@H]1C	MIC	-	2275 (rifampin-resistant)	-	-	0.4 µg/mL
CC(=O)NNS(=O)(=O)c1ccc([N+](=O)[O-])cc1	MIC	-	-	-	-	200 µg/mL
O=c1c(O)c(-c2ccccc2)oc2cc(Cl)ccc12	inhibition	-	H37Rv	12.5 µg/mL	-	52%
COc1ccccc1Sc1nc(Cl)nc2nc[nH]c12	MIC	-	H37Ra	-	-	>12.8 µg/mL
O=C(N/N=C/c1ccco1)c1ccc(NS(=O)(=O)c2ccccc2)cc1	MIC	-	-	-	-	>200 µg/mL
COc1ccc(-c2coc3c4c(ccc3c2=O)OC(C)(C)C=C4)cc1	MIC bound	BACTEC	H37Rv	-	-	>12.5 µg/mL
O=C(N/N=C/c1ccccc1)c1ccccc1Cl	MIC	-	-	-	-	1 µg/mL
Fc1ccc(-n2ncc(C(c3ccccc3)n3ccnc3)c2-c2ccccc2)c(F)c1	MIC90	-	ATCC 35828 (pyrazinamide-resistant)	-	-	≥100 µM
O=C1CC(c2ccccc2)Oc2cc(Cl)ccc21	inhibition	-	-	12.5 µg/mL	-	0%
O=c1[nH]c2ccc(Cl)cc2c(=O)o1	inhibition	resazurin	H37Rv	6.25 µg/mL	-	13%
C[C@H]1COc2c(N3CCN(C)CC3)c(F)cc3c(=O)c(C(=O)O)cn1c23	MIC	-	ATCC 35826	-	-	0.25 µg/mL
CSC(=S)N/N=C(/C)Cc1ccccn1	inhibition	BACTEC	H37Rv	128 µg/mL	-	100%
CC[C@H]1OC(=O)[C@H](C)[C@@H](O[C@H]2C[C@@](C)(OC)[C@@H](O)[C@H](C)O2)[C@H](C)[C@@H](O[C@@H]2O[C@H](C)C[C@H](N(C)C)[C@H]2O)[C@](C)(O)C[C@@H](C)C(=O)[C@H](C)[C@@H](O)[C@]1(C)O	MBC	-	ATCC 35828	-	-	>8 µg/mL
Cc1ccccc1CSc1nc(=O)[nH]c2nc[nH]c12	inhibition	-	H37Rv	6.25 µg/mL	-	0%
Clc1ccc(-c2c(C(c3ccccc3)n3ccnc3)cnn2-c2ccccc2)cc1	MIC90	-	ATCC 35837 (ethambutol-resistant)	-	-	≥100 µM
CO[C@H]1/C=C/O[C@@]2(C)Oc3c(C)c(O)c4c(O)c(c(/C=N/N5CCN(C)CC5)c(O)c4c3C2=O)NC(=O)/C(C)=C\C=C\[C@H](C)[C@H](O)[C@@H](C)[C@@H](O)[C@@H](C)[C@H](OC(C)=O)[C@@H]1C	MIC	-	3897	-	-	≥2 µg/mL
Clc1nc(Sc2ncc[nH]2)c2[nH]cnc2n1	MIC	-	H37Ra	-	-	>12.8 µg/mL
O=c1cc(-c2ccc(O)c(-c3c(O)cc(O)c4c(=O)cc(-c5ccc(O)cc5)oc34)c2)oc2cc(O)cc(O)c12	EC50	-	-	-	-	>12.5 µg/mL
CCCCNC(=S)S	MIC	-	EMB-R	-	-	>12.5 µg/mL
NNC(=O)c1ccncc1	MIC	-	50194	-	-	≥0.2 µg/mL
CN=c1ncc2nc(C)c(C)n(C)c-2n1	MIC	BACTEC	H37Rv	-	-	≥12.5 µg/mL
Clc1ccc(-n2ncc(C(c3ccccc3)n3ccnc3)c2-c2ccccc2Cl)c(Cl)c1	MIC90	-	ATCC 35822 (isoniazid-resistant)	-	-	>100 µM
Nc1cccc2c(=O)[nH][nH]c(=O)c12	inhibition	BACTEC	H37Rv	0.5 µM	-	0%
CC[C@H]1OC(=O)[C@H](C)[C@@H](O[C@H]2C[C@@](C)(OC)[C@@H](O)[C@H](C)O2)[C@H](C)[C@@H](O[C@@H]2O[C@H](C)C[C@H](N(C)C)[C@H]2O)[C@](C)(OC)C[C@@H](C)C(=O)[C@H](C)[C@@H](O)[C@]1(C)O	MBC	-	ATCC 35828	-	-	>8 µg/mL
Clc1ccc(C2NN=C3c4ccccc4OCC32)cc1	MIC bound	BACTEC	H37Rv	-	-	>12.5 µg/mL
CC1COc2c(N3CCN(C)CC3)c(F)cc3c(=O)c(C(=O)O)cn1c23	MIC50	-	MDR	-	-	4 µg/mL
COc1cc2c(cc1OC)C(c1cc(OC)c(OC)c(OC)c1)C1(O)C(=O)OCC1(O)C2	MIC bound	BACTEC	H37Rv	-	-	>12.8 µg/mL
NNC(=O)c1ccncc1	MIC	-	Strain 325	-	-	8 µg/mL
NNC(=O)c1ccncc1	MIC	-	5S	-	-	0.1 µg/mL
NNC(=O)CCCCC(=O)NN	MIC	-	-	-	-	200 µg/mL
Cc1cc(=O)oc2ccc3c(=O)ccoc3c12	MIC bound	BACTEC	H37Rv	-	-	>12.5 µg/mL
Fc1ccc(-n2ncc(C(c3ccccc3)n3ccnc3)c2-c2ccccc2)cc1	MIC90	-	ATCC 35837 (ethambutol-resistant)	-	-	≥100 µM
O=c1[nH][nH]c(=O)c2ccccc12	MIC	-	-	-	-	200 µg/mL
COc1ccc(OC)c(NC(=O)CCC/C(CC(=O)c2ccc(O)c(OC)c2)=N\NC(=O)C[N+](C)(C)C)c1.[Cl-]	MIC bound	BACTEC	H37Rv	-	-	>12.5 µg/mL
CC1CN(c2c(F)cc3c(=O)c(C(=O)O)cn(C4CC4)c3c2F)CCN1	MIC	-	CSU28	-	-	0.25 µg/mL
O=c1cc(-c2ccccc2I)oc2ccccc12	MIC	-	H37Rv	-	-	>12.5 µg/mL
COc1ccc(C2Oc3ccc(C(=O)O)cc3C(=O)C2O)cc1	inhibition	-	-	12.5 µg/mL	-	0%
c1ccc(-c2c(C(c3ccccc3)n3ccnc3)cnn2-c2ccccc2)cc1	MIC90	-	ATCC 35837 (ethambutol-resistant)	-	-	>100 µM
CC(C)CCCC(C)CCNCCSS(=O)(=O)O	MIC bound	resazurin	H37Rv	-	-	>6.25 µg/mL
Clc1cccc(Sc2nc(Cl)nc3nc[nH]c23)c1	MIC	-	H37Ra	-	-	>12.8 µg/mL
C[C@@H]1CN(c2c(F)c(N)c3c(=O)c(C(=O)O)cn(C4CC4)c3c2F)C[C@H](C)N1	MIC	-	CSU27	-	-	≤0.125 µg/mL
Nc1ccc(C(=O)/C=C/c2cccnc2N)cc1	MIC	-	H37Rv	-	-	>12.5 µg/mL
CC1(C)N=c2cc3c(cc2N1c1ccc(Cl)cc1)=Nc1ccccc1N3c1ccc(Cl)cc1	MIC	BACTEC	H37Rv	-	-	0.8 µg/mL
O=c1cc(-c2ccc(Cl)c([N+](=O)[O-])c2)oc2ccccc12	MIC	-	H37Rv	-	-	>12.5 µg/mL
CO[C@H]1/C=C/O[C@@]2(C)Oc3c(C)c(O)c4c(=O)c(c5oc6cc(N7CCN(C(C)C)CC7)cc(=O)c6nc5c4c3=C2O)NC(=O)/C(C)=C\C=C\[C@H](C)[C@H](O)[C@@H](C)[C@@H](O)[C@@H](C)[C@H](OC(C)=O)[C@@H]1C	MIC	-	2230 (rifampin-resistant)	-	-	0.2 µg/mL
O=C(NNC(=O)c1ccccc1O)c1ccccc1O	MIC	-	-	-	-	>200 µg/mL
O=C(/C=C/c1ccccc1)c1ccc(Cl)cc1O	MIC	-	H37Rv	-	-	>12.5 µg/mL
CCCCCCCCSc1nc(Cl)nc2nc[nH]c12	MIC90	-	H37Rv	-	-	>6.25 µg/mL
Cc1ccc(NP2(Nc3ccc(C)cc3)=NP(Nc3ccc(C)cc3)(N3CC3)=NP(Nc3ccc(C)cc3)(N3CC3)=N2)cc1	MIC	BACTEC	H37Rv	-	-	2 µg/mL
COc1ccc(OC)c(Sc2ncnc3nc[nH]c23)c1	inhibition	-	H37Rv	6.25 µg/mL	-	0%
CO[C@H]1/C=C/O[C@@]2(C)Oc3c(C)c(O)c4c(=O)c(c5oc6cc(N7CCN(CC(C)C)CC7)cc(=O)c6nc5c4c3=C2O)NC(=O)/C(C)=C\C=C\[C@H](C)[C@H](O)[C@@H](C)[C@@H](O)[C@@H](C)[C@H](OC(C)=O)[C@@H]1C	MIC	-	2242 (rifampicin-susceptible)	-	-	0.0078 µg/mL
CCOc1ccc(C(=O)N/N=C(/C)CCC(=O)O)cc1	MIC	-	-	-	-	200 µg/mL
CO[C@H]1/C=C/O[C@@]2(C)Oc3c(C)c(O)c4c(O)c(c5c(c4c3C2=O)NC2(CCN(CC(C)C)CC2)N=5)=NC(=O)/C(C)=C\C=C\[C@H](C)[C@H](O)[C@@H](C)[C@@H](O)[C@@H](C)[C@H](OC(C)=O)[C@@H]1C	MIC	-	Strain 68	-	-	0.25 µg/mL
COc1ccc(/C=C/C(=O)c2ccc(Br)cc2O)cc1	MIC	-	H37Rv	-	-	>12.5 µg/mL
O=C(O)c1cn(C2CC2)c2c(F)c(N3CCSCC3)c(F)cc2c1=O	MIC	-	CSU27	-	-	2 µg/mL
CCOC(=O)c1cc(C2(OC)CCN(Cc3ccccc3)C2=O)c(-c2cc(C)no2)[nH]1	inhibition	resazurin	H37Rv	6.25 µg/mL	-	5%
Fc1ccccc1-c1c(C(c2ccccc2)n2ccnc2)cnn1-c1ccccc1F	MIC50	-	ATCC 27294	-	-	47.2 µM
CN(C)C1=NC2=S(SC(Nc3ccccc3)=N2)S1	MIC bound	resazurin	H37Rv	-	-	>6.25 µg/mL
Fc1ccccc1-c1c(C(c2ccccc2)n2ccnc2)cnn1-c1ccccc1	MIC50	-	ATCC 35822 (isoniazid-resistant)	-	-	≥100 µM
COc1cccc(CSc2ccncc2)c1	MIC	-	H37Ra	-	-	>12.8 µg/mL
O=C(/C=C/c1ccccc1)c1cc(-c2ccccc2)ccc1O	MIC	-	H37Rv	-	-	>12.5 µg/mL
O=C1c2ccccc2-c2c1c1ccccc1c(=O)n2-c1ccccc1	MIC bound	resazurin	H37Rv	-	-	>6.25 µg/mL
COc1ccc(-c2cc(=O)c3cc(C(=O)O)ccc3o2)cc1	MIC	-	H37Rv	-	-	>12.5 µg/mL
NCC[C@H](O)C(=O)N[C@@H]1C[C@H](N)[C@@H](O[C@H]2O[C@H](CN)[C@@H](O)[C@H](O)[C@H]2O)[C@H](O)[C@H]1O[C@H]1O[C@H](CO)[C@@H](O)[C@H](N)[C@H]1O	MIC	-	4S	-	-	2.5 µg/mL
CC(=O)NNS(=O)(=O)c1ccc(Cl)c(Cl)c1	MIC	-	-	-	-	>200 µg/mL
Fc1ccc(-c2c(C(c3ccccc3)n3ccnc3)cnn2-c2ccc(F)cc2)cc1	MIC50	-	ATCC 35822 (isoniazid-resistant)	-	-	≥100 µM

Fold resistance: result on the changed form divided by that on wild type. MIC bound comes from a single tested concentration. ECn: concentration that inhibits the pathogen or its effect by n%. MIC50, MIC90 and the like: level of inhibition, or share of isolates inhibited. Inhibition is in % at the dose shown (toxicity tests: loss of growth or viability). Blank or dashed fields: not listed here.